Test results from patent publication US20110217202A1, “ACTIVE OXYGEN DISINFECTION SYSTEM AND USE THEREOF” (priority 2010, published 2011).

Key:
[1] = Uptake of photosensitizers by contact lenses (Example 3); settings: 10 μg/mL photosensitizer, lenses submerged overnight
[2] = as above; settings: 10 μg/mL photosensitizer, lenses submerged overnight; remark: listed apart in the source
[3] = UV spectrometry against blank lens

## CN(C)c1ccc2nc3ccc(=[N+](C)C)cc-3sc2c1 [MB, Methylene Blue]
[1]
  Visual (color change of the lens): Highly visible
[1]; [3]
  UV/Vis (uptake by lens): 4.65 µg
[2]
  Visual (color change of the lens): invisible
[2]; [3]
  UV/Vis (uptake by lens): 0.4 µg
